Anti-infective test results gathered from many reports (values: NIAID ChemDB through PubChem).

Shared fields: tests in culture; species: Mycobacterium tuberculosis

MIC bound comes from a single tested concentration. A number after MIC or MFC names an inhibition level or a share of isolates. ECn: concentration that inhibits the pathogen or its effect by n%. Blank or dashed fields: not listed here. Percent inhibition refers to the dose given; in toxicity tests it is the harm to the cells. Lines come from different laboratories, so protocols vary.

SMILES	endpoint	method	mutations	strain or isolate	cells	conditions	tested at	value
CCOC(=O)Nc1cc2c(c(N)n1)N=C(c1ccc3c(c1)OCO3)C(C)N2	EC50			H37Rv	VERO			<12.5 µg/mL
COc1ccc2c(c1)[n+]([O-])c(S(=O)(=O)c1ccc(C)cc1)c(N)[n+]2[O-]	MIC	BACTEC		H37Rv				≥12.5 µg/mL
COc1nc2ccc(Br)cc2cc1C(c1ccccc1)C(O)(CCCN1CCOCC1)c1ccc2ccccc2c1	MIC90			H37Rv				61.16 µg/mL
Cc1occc1C(=S)Nc1ccc(Cl)c(/C=N/OC(C)(C)C)c1	MIC bound	BACTEC		H37Rv				≤12.5 µg/mL
O=C(c1ccc([N+](=O)[O-])o1)N1CCc2cc(N3CCN(Cc4ccccc4)CC3)ccc2C1	MIC			UT15				0.012 µg/mL
COc1cccc2c1cc1c3c(cc4c(c32)OCO4)C(=O)N1	MIC	resazurin		H37RvSr				25 µg/mL
O=C1NC(NNC(=O)c2ccncc2)=N/C1=C\c1ccccc1Cl	EC50	colony count		Erdman		inside macrophages		<0.85 µg/mL
O=C(O)c1c2n(c3cc([N+](=O)[O-])c(N4CCC(n5c(=O)[nH]c6ccc(Cl)cc65)CC4)cc3c1=O)CS2	MIC	agar		H37Rv				0.73 µM
CC1=CC2=C(C=O)C(=O)[C@@](C)(O)[C@H](O)C2=CO1	MIC bound	BACTEC		H37Rv				>12.8 µg/mL
COc1c(N2CC[C@@H](C(C)(C)N)C2)c(F)cc2c(=O)c3c(=O)[nH]sc3n(C3CC3)c12	MIC			Pan-susceptible clinical isolate 5				0.06 µg/mL
CCN(CC)c1ccc(NC2=CC(=O)C(Nc3ccc(N(CC)CC)cc3)=CC2=O)cc1	MIC bound	resazurin		H37Rv				>6.25 µg/mL
COc1nc2ccc(Br)cc2cc1C(c1ccccc1)C(O)(CCN1CCN(C)CC1)c1cccc2ccccc12	MIC90			H37Rv				9.68 µg/mL
CCOC(=O)Nc1cc(N)c([N+](=O)[O-])c(N[C@H](C)/C(=C\O)c2ccc(O)cc2)n1	inhibition			H37Rv			12.5 µg/mL	1%
O=C(Nc1ccc(C(F)(F)F)cc1)c1cc(Br)ccc1OP(=O)(Oc1ccccc1)Oc1ccccc1	MIC			My 331/88		14 d		2 µM
COc1cccc2c1NC(c1ccncc1)S2	MIC			H37Rv				1.6 µg/mL
CCN=c1cc2n(-c3ccc(Cl)cc3)c3ccccc3nc-2cc1Nc1ccc(Cl)cc1	MIC			MTB12 (PZA-resistant)				0.06 µg/mL
Cn1nnc2c1C(=O)c1ccccc1C2=O	inhibition	BACTEC		H37Rv			12.5 µg/mL	99%
CCN(CC)CCCN=c1cc2n(-c3ccc(Cl)c(Cl)c3)c3ccccc3nc-2cc1Nc1ccc(Cl)c(Cl)c1	MIC			2225		multidrug-resistant		0.12 µg/mL
CCOC(=O)Nc1cc2c(c(N)n1)N=C(c1ccc3ccccc3c1)CS2	EC50			H37Rv				<12.5 µg/mL
CN1CCN(c2cc3c(=O)c(C(=O)O)c4n(c3cc2[N+](=O)[O-])CS4)CC1c1ccccc1	MIC	agar	MDR-TB	H37Rv				3.45 µM
O=c1c(O)c(-c2ccc(O)cc2O)oc2cc(O)cc(O)c12	MIC bound	BACTEC		H37Rv				>128 µg/mL
CC(C)N=c1cc2n(-c3ccc(Cl)cc3)c3ccccc3nc-2cc1Nc1ccc(Cl)cc1	MIC			MTB11 (EMB-resistant)				1 µg/mL
Cc1ccc(S(=O)(=O)OCCn2sc3nc(C)cc(C)c3c2=O)cc1	inhibition			H37Rv			12.5 µg/mL	0%
COC(=O)[C@@H]1[C@H](O)[C@H](C)C(O)[C@H](C)/C=C\C=C(/C)C(=O)Nc2c(C)c(OC(C)=O)c3c(c2O)C(=O)C(C)=C2OCOC(=C23)/C(C)=C/[C@@](C)(O)[C@H](O)[C@@H](C)[C@H]1OC(C)=O	MIC			CS-R				0.4 µg/mL
Cc1onc(-c2c(F)cccc2F)c1C(=O)N1CCN(c2cc3c(=O)c(C(=O)O)c4n(c3cc2F)CS4)CC1	MIC	agar		H37Rv				11.23 µM
O=[N+]([O-])c1ccc(C2Nc3ccccc3S2)o1	MIC			H37Rv				6.3 µg/mL
Clc1ccc(Nc2cc3nc4ccccc4n(-c4ccc(Cl)c(Cl)c4)c-3cc2=NC2CCNCC2)cc1Cl	MIC			MTB11 (EMB-resistant)				2 µg/mL
O=C1NC(NNC(=O)c2ccncc2)=N/C1=C\c1ccc(Cl)cc1	MBC			Rifampicin-resistant				25 µg/mL
COc1nc2ccc(Br)cc2cc1C(c1ccccc1)C(O)(CCN(C)C)c1ccc2c3c(cccc13)CC2	MIC90			H37Rv				58.16 µg/mL
CN[C@@H]1[C@H](O[C@H]2[C@H](O[C@H]3[C@H](O)[C@@H](O)[C@H](N=C(N)N)[C@@H](O)[C@@H]3N=C(N)N)O[C@@H](C)[C@]2(O)C=O)O[C@@H](CO)[C@H](O)[C@H]1O	MIC			42494				<2 µg/mL
O=[N+]([O-])c1cn2c(n1)OC[C@@H](OCc1ccc(OC(F)(F)F)cc1)C2	MIC			HN878				0.024 µg/mL
C.COc1ccc([C@H]2OC(=O)C3C2C(=O)O[C@@H]3c2ccc(OC)c(OC)c2)cc1OC	inhibition	BACTEC		H37Rv			12.5 µg/mL	0%
COc1ccc2cc([N+](=O)[O-])c3ccc(=O)oc3c2c1	MIC	resazurin		MMDO				50 µg/mL
COc1cc2c(cc1Oc1ccc(OC)c3c1CC1c4c(cc(OC)c(OC)c4-3)CCN1C)CC1c3c(cc(OC)c(OC)c3-2)CCN1C	MIC			ETA-R				12.5 µg/mL
CO[C@H]1/C=C/O[C@@]2(C)Oc3c(C)c(O)c4c(O)c(c(/C=N/N5CCN(C6CCCC6)CC5)c(O)c4c3C2=O)NC(=O)/C(C)=C\C=C\[C@H](C)[C@H](O)[C@@H](C)[C@@H](O)[C@@H](C)[C@H](OC(C)=O)[C@@H]1C	MIC			1027				0.04 µg/mL
CC1(C)S[C@@H]2[C@H](NC(=O)[C@H](N)c3ccc(O)cc3)C(=O)N2[C@H]1C(=O)O	MIC90			24 strains (drug-susceptible)				>256 µg/mL
CCOC(=O)Nc1cc(NC)c([N+](=O)[O-])c(N)n1	inhibition			H37Rv			12.5 µg/mL	0%
O=C1c2cc(Br)ccc2OP(=O)(c2ccccc2)N1c1ccc(C(F)(F)F)cc1	MIC			7357/1998		14 d		1 µM
Clc1cccc2c1NC(c1ccncc1)S2	MIC			H37Rv				6.3 µg/mL
CCCCC1Nc2cc(NC(=O)OCC)nc(N)c2N=C1C	EC50			H37Rv				<12.5 µg/mL
O=C1NC(=Nc2ccc(Cl)cc2Cl)N/C1=C\c1ccc(Cl)cc1Cl	MIC			H37Rv	VERO			>12.5 µg/mL
O=C(O)c1cn2c(n1)CN(c1cc3c(=O)c(C(=O)O)c4n(c3cc1F)CS4)CC2	MIC	agar		H37Rv				0.94 µM
COc1nc2ccc(Br)cc2cc1C(c1ccccc1)C(O)(CCCN1CCOCC1)c1cccc2ccccc12	MIC90			H37Rv				61.16 µg/mL
CC[C@@H]1C(=O)OC[C@@H]1Cc1cncn1C	MIC	BACTEC		H37Rv				≥128 µg/mL
O=C(Nc1ccc(C(F)(F)F)cc1)c1cc(Cl)ccc1OP(=O)(c1ccccc1)c1ccccc1	MIC			Praha 1		21 d		1 µM
CN[C@@H]1[C@H](O[C@H]2[C@H](O[C@H]3[C@H](O)[C@@H](O)[C@H](N=C(N)N)[C@@H](O)[C@@H]3N=C(N)N)O[C@@H](C)[C@]2(O)C=O)O[C@@H](CO)[C@H](O)[C@H]1O	MIC			H37RV (SM-R)				35 µg/mL
O=C(O)c1c2n(c3cc([N+](=O)[O-])c(N4CCN(C(c5ccccc5)c5ccc(Cl)cc5)CC4)cc3c1=O)CS2	MIC	agar		H37Rv				11.1 µM
Cc1ccc(NC(=O)Nc2ccccc2F)cc1Cl	inhibition	BACTEC		H37Rv			12.5 µg/mL	66%
CO[C@H]1/C=C/O[C@@]2(C)Oc3c(C)c(O)c4c(O)c(c(/C=N/N5CCN(C)CC5)c(O)c4c3C2=O)NC(=O)/C(C)=C\C=C\[C@H](C)[C@H](O)[C@@H](C)[C@@H](O)[C@@H](C)[C@H](OC(C)=O)[C@@H]1C	MIC99		526Asp					≥640 µg/mL
CC1(C)CCC[C@]2(C)[C@H]3C=C4C=C(O)C(=O)C=C4O[C@@]3(C)CC[C@@H]12	MIC			CS-R				12.5 µg/mL
CC(=O)NCC1CN(c2ccc(C(C)=O)cc2)C(=O)O1	MIC			H37Rv				1.25 µg/mL
Cc1ncc(C[n+]2csc(CCO)c2C)c(N)n1	MIC	BACTEC		H37Rv				≥128 µg/mL
CCOC(=O)N1CCN(c2ccc(C3CC(c4ccc([N+](=O)[O-])o4)=NO3)cc2)CC1	MIC			H37Rv				0.006 µg/mL
CCCCNC(=O)CN1C(C(C)=O)=C(O)c2c(C)cc(C)nc2S1(=O)=O	EC50			H37Rv				>12.5 µg/mL
COc1nc2ccc(Br)cc2cc1C(c1ccccc1)C(O)(CCN(C)C)c1cccc2c1CCCC2	MIC90			H37Rv				44.45 µg/mL
O=C1c2cc(Cl)ccc2OP(=O)(c2ccccc2)N1c1ccc(C(F)(F)F)cc1	MIC			234/2005		14 d		1 µM
O=C1C2=C(Nc3cc([N+](=O)[O-])ccc3N2)OC1c1c[nH]c2ccc(COc3ccccc3)cc12	inhibition	BACTEC		H37Rv			12.5 µg/mL	7%
Cc1cc(C)c2c(n1)S(=O)(=O)N(CC(=O)c1ccccc1)C2=O	MIC			H37Rv				>12.5 µg/mL
CO[C@H]1/C=C/O[C@@]2(C)Oc3c(C)c(O)c4c(O)c(c(/C=N/N5CCN(C)CC5)c(O)c4c3C2=O)NC(=O)/C(C)=C\C=C\[C@H](C)[C@H](O)[C@@H](C)[C@@H](O)[C@@H](C)[C@H](OC(C)=O)[C@@H]1C	MIC			89996				≥2 µg/mL
COc1ccc(CC2C3=C(CCCC3)CCN2c2cc3c(=O)c(C(=O)O)c4n(c3cc2F)CS4)cc1	MIC	agar		H37Rv				12.33 µM
CCN(CC)CCOc1ccc(C2Nc3ccccc3S2)cc1	MIC			H37Rv				12.5 µg/mL
O=C1C(=O)N(C2CCCCC2)C(=S)N1C1CCCCC1	inhibition	BACTEC		H37Rv			12.5 µg/mL	0%
O=C1NC(NNC(=O)c2ccncc2)=N/C1=C\c1ccc(Cl)cc1Cl	MIC	resazurin		H37Rv				>12.5 µg/mL
S=C(S)N1CCCCC1	MIC			PAS-R				1.6 µg/mL
Cc1cc(C)c2c(n1)S(=O)(=O)N/C(=C(/O)c1ccccc1)C2=O	EC50			H37Rv				>12.5 µg/mL
C[C@H]1[C@H](NC(=O)/C(=N\OC(C)(C)C(=O)O)c2csc(N)n2)C(=O)N1S(=O)(=O)O	MIC50			24 strains (drug-susceptible)				>64 µg/mL
CCn1cc(C(=O)O)c(=O)c2cc(F)c(N3CCNCC3)cc21	MIC			H37RV (RIF-R)				31.2 µg/mL
COC(=O)[C@@H]1c2cc3c(c(O)c2[C@@H](OC)C[C@@]1(C)O)C(=O)c1c(O)cc2c(c1C3=O)O[C@@H]1O[C@@]2(C)[C@H](O)[C@@H](N(C)C)[C@@H]1O	MIC	BACTEC		H37Rv				6.25 µg/mL
O=C1c2cc(Cl)ccc2OP(=O)(c2ccccc2)N1c1ccc(Cl)cc1	MIC			My 331/88		7 d		4 µM
C[C@@H]1O[C@@H](O[C@@H]2[C@@H](O)[C@H](OCCc3ccc(O)c(O)c3)O[C@H](CO)[C@H]2OC(=O)/C=C/c2ccc(O)c(O)c2)[C@H](O)[C@H](O)[C@H]1O	inhibition	BACTEC		H37Rv			12.5 µg/mL	0%
CCOC(=O)CN1C(C(C)=O)=C(O)c2c(C)cc(C)nc2S1(=O)=O	inhibition			H37Rv			12.5 µg/mL	31%
Nc1ccn([C@@H]2O[C@H](C(O[C@@H]3O[C@H](CO)[C@@H](O)[C@H](N)[C@H]3O)[C@@H](O)[C@@H](O)[C@@H](O)[C@@H](O)CO)[C@@H](N)[C@H](O)[C@H]2O)c(=O)n1	MIC	BACTEC		H37Rv				≥12.5 µg/mL
O=C(O)c1c2n(c3cc(F)c(N4CCSCC4)cc3c1=O)CS2	MIC	agar	MDR-TB	H37Rv				8.88 µM
COc1cc(C(=O)C/C(CCC(=O)Nc2ccc(Cl)cc2Cl)=N/NC(=O)C(=O)NN)ccc1O	inhibition	BACTEC		H37Rv			12.5 µg/mL	37%
O=C1NC(NNC(=O)c2ccncc2)=N/C1=C\c1cccc(Cl)c1	EC99	colony count		Erdman		inside macrophages		>50 µg/mL